The values that follow come from US20060121449A1, “Method for selection of compounds which inhibit clonal cell growth and use thereof” (priority 2002, published 2006).

The structures appear in SMILES notation.

In the series the test system is Ehrlich ascites tumour. The conditions noted are these: Exp 18.

Regarding `CCCCC1(O)C(=O)N(c2ccccc2)N(c2ccc(O)cc2)C1=O` (centres unmarked) [4-OH-OPB, 4-butyl-4-hydroxy-2(p-hydroxyphenyl)-1-phenyl-3,5-pyrazolidinedione], the “organs, findings on section” value (at killing) is reported as “tumour in left side of abdominal wall. Normal organs”. Moreover, the “Animal weight on section” value (at killing (mouse 1 day 14, mice 2 and 3 day 16), control 37.3) is on record as 38.9 g.
